Pooled drug test results. Numbers come from NIAID ChemDB, via PubChem.

Shared fields: growth or infection tests; species: HIV-1; cell line: HeLa; measure: EC50

Two numbers with a dash give a range or band. ECn is the concentration giving n% inhibition of infection, replication or growth. Rows are shuffled and stem from different studies.

COc1cnc(-c2cccn2C)c2[nH]cc(C(=O)C(=O)N3CCN(C(=O)c4ccccc4)CC3)c12 ; method: luciferase ; result: 0.0002–1 µM
COc1ccc2cc(CC(=O)N3CCN(C(=O)c4ccccc4)CC3)ccc2c1 ; method: luciferase / reporter gene ; result: <1 µM
COc1ncc(OC)c2c(C(=O)C(=O)N3CCC(=C(c4ccccc4)c4cc(C)cs4)CC3)c[nH]c12 ; method: luciferase ; result: <1 µM
CCOC(=O)CCNC(=O)Nc1cccc2c(C(=O)C(=O)N3CC/C(=C(\C#N)c4ccccc4)C[C@H]3C)c[nH]c12 ; method: luciferase / reporter gene ; result: <1 µM
COc1ncc(OC)c2c(C(=O)C(=O)N3CCC(=C(c4ccccc4)c4ccco4)CC3)c[nH]c12 ; method: luciferase ; result: <1 µM
CC1CC(C)CN(S(=O)(=O)c2ccccc2[N+](=O)[O-])C1 ; strain or isolate: 14AG ; method: GFP / fluorescence ; result: 0.16 µM
COc1ncc(OC)c2c(C(=O)C(=O)N3CCN(C(=O)c4ccccc4)C[C@H]3C)c[nH]c12 ; method: luciferase ; result: 0.0002–1 µM
Cc1cc(C)c(Oc2nc(Nc3ccc(C#N)cc3)nc3sc4c(c23)CCCC4)c(C)c1 ; strain or isolate: Y181C ; method: luciferase ; result: >0.1 µM
COc1cnc(-c2cccc(NC(=O)C3OC3C(=O)O)n2)c2[nH]cc(C(=O)C(=O)N3CCN(C(=O)c4ccccc4)CC3)c12 ; method: luciferase ; result: <1 µM
CC1CN(C(=O)c2ccccc2)CCN1C(C#N)C(=O)c1ccc2cc(O)ccc2n1 ; method: luciferase / reporter gene ; result: <1 µM
CN1c2ccccc2C2C1C=C(C#N)C(=O)N2c1ccc([N+](=O)[O-])cc1 ; strain or isolate: N119 ; method: GFP / fluorescence ; result: 0.13 µM
COc1ncc(OC)c2c(C(=O)C(=O)N3CCC(=C(C#N)c4nc5ccccc5[nH]4)CC3)c[nH]c12 ; method: luciferase ; result: <1 µM
COc1ccc2nc(C(=N)C(C#N)N3CCN(C(=O)c4ccccc4)CC3C)ccc2c1 ; method: luciferase / reporter gene ; result: >0.5 µM
C[C@@H]1CN(C(=O)c2ccccc2)CCN1C(=O)C(=O)c1c[nH]c2c(NC(=O)NCCCCCCNC(=O)Nc3ccc(B(O)O)cc3)cccc12 ; method: luciferase / reporter gene ; result: <1 µM
C[C@H]1CN(C(=O)c2ccccc2)CCN1C(C#N)C(=O)c1ccc2cnccc2n1 ; method: luciferase / reporter gene ; result: 1–5 µM
COC(=O)NCCCCNC(=O)Nc1cccc2c(C(=O)C(=O)N3CCN(C(=O)c4ccccc4)C[C@H]3C)cn(C(=O)NCCCCNC(=O)OC)c12 ; method: luciferase / reporter gene ; result: <1 µM
COc1cnc(-n2cnc(C)n2)c2[nH]cc(C(=O)C(=O)N3CCC(=C(c4ccccc4)c4nnc(C(C)C)o4)CC3)c12 ; method: luciferase ; result: <1 µM
COc1cnc(-c2cnccn2)c2[nH]cc(C(=O)C(=O)N3CCN(C(=O)c4ccccn4)[C@@H](C)C3)c12 ; method: luciferase ; result: <1 µM
Cc1cc(C#N)cc(C)c1Oc1nc(Nc2ccc(C#N)cc2)nc2ccsc12 ; strain or isolate: Y-188L ; method: luciferase ; result: >0.1 µM
CC1CN(C(=O)c2ccccc2)CCN1C(=O)C(=O)c1ccc2cc(Br)ccc2n1 ; method: luciferase / reporter gene ; result: <1 µM
Cc1cc(C)c(Oc2nc(Nc3ccc(C#N)cc3)nc3c(C)csc23)c(C)c1 ; strain or isolate: Y181C ; method: luciferase ; result: 0.01–0.1 µM
C=C(C)c1nnc(C(=C2CCN(C(=O)C(=O)c3c[nH]c4c(-n5cnc(C)n5)ncc(OC)c34)CC2)c2ccccc2)o1 ; method: luciferase ; result: <1 µM
C[C@@H]1CN(C(=O)c2ccccc2)CCN1C(=O)C(=O)c1c[nH]c2c(NC(=O)NCCCCCCCCNC(=O)Nc3ccc(B(O)O)cc3)cccc12 ; method: luciferase / reporter gene ; result: <1 µM
COc1cnc(-c2cncc(=O)[nH]2)c2[nH]cc(C(=O)C(=O)N3CCN(C(=O)c4ccccc4)CC3)c12 ; method: luciferase ; result: <1 µM
Cc1cc(C)c(Oc2nc(Nc3ccc(C#N)cc3)nc3sccc23)c(C)c1 ; strain or isolate: Y-188L ; method: luciferase ; result: 0.01–0.1 µM
O=C(C(=O)N1CCC(=C(c2ccccc2)c2ccccc2)CC1)c1c[nH]c2ccccc12 ; method: luciferase ; result: 1–5 µM
O=C(C(=O)N1CCN(C(=O)c2ccccc2)CC1)c1cnc2ccccc2n1 ; method: luciferase / reporter gene ; result: <1 µM
N#CC(=C1CCN(C(=O)C(=O)c2c[nH]c3ccccc23)CC1)c1ccccc1 ; method: luciferase ; result: 1–5 µM
C[C@@H]1CN(C(=O)c2ccccc2)CCN1C(C#N)C(=O)c1cnc2ccccc2n1 ; method: luciferase / reporter gene ; result: <1 µM
COc1cnc(-c2ccc(C(=O)OC(C)C)cc2)c2[nH]cc(C(=O)C(=O)N3CCC(=C(C#N)c4ccccc4)CC3)c12 ; method: luciferase ; result: <1 µM
CC1CN(C(=O)c2ccccc2)CCN1C(=O)[C@@H](O)c1ccc2ccccc2c1 ; method: luciferase / reporter gene ; result: 1–5 µM
C#CC(=C1CCN(C(=O)C(=O)c2c[nH]c3c(OC)ncc(OC)c23)CC1)c1ccccc1 ; method: luciferase ; result: <1 µM
O=C(C(=O)N1CCN(C(=O)c2ccccc2)CC1)c1ccc2nccnc2c1 ; method: luciferase / reporter gene ; result: 1–5 µM

A second listing of 2 rows from above:

{"structure": "COc1ccc2nc(C(=N)C(C#N)N3CCN(C(=O)c4ccccc4)CC3C)ccc2c1", "method": "luciferase / reporter gene", "result": ">0.5 µM"}
{"structure": "C[C@@H]1CN(C(=O)c2ccccc2)CCN1C(=O)C(=O)c1c[nH]c2c(NC(=O)NCCCCCCCCNC(=O)Nc3ccc(B(O)O)cc3)cccc12", "method": "luciferase / reporter gene", "result": "<1 µM"}